Results: patent US20230174624A1, “FERRITIN VARIANTS WITH INCREASED STABILITY, COMPLEXATION ABILITY AND TRANSFERRIN RECEPTOR AFFINITY” (CELLIS AG, priority 2020, published 2023)

Assay: Native PAGE gel after doxorubicin encapsulation and purification
Format: physicochemical
Conditions: ferritin-dox after encapsulation, concentrated on 10 or 100 kDa Amicon
Description: Native PAGE gel has been performed in order to check the size of the protein after encapsulation and purification. […] A greater degree of aggregation adversely affects the loading efficiency and protein recovery after loading with doxorubicin (FIG. 3).

Q: Which “forms on native gel (24-mers versus aggregates)” value (listed as wild type ferritin) does the source give for “WT: human wild-type heavy chain ferritin (SEQ ID NO. 1) [reference compound]” here?
A: The value was “mainly forms of double glued frames, aggregates of cages and larger forms of aggregates”.

Q: And the “forms on native gel (24-mers versus aggregates)” value (listed as wild type protein)?
A: The value was “shows a heterogeneity of forms, in addition to cages it contains aggregates of cages and larger forms of aggregates”.
